Results of unrelated studies side by side (data: NIAID ChemDB).

All rows: tests in culture; species: HIV-1

a–b is a range or a potency band. Neighbouring rows are from separate reports. An empty or dashed field is not shown. ECn: concentration that inhibits the pathogen or its effect by n%.

compound	strain	measure	mutations	cell line	conditions	method	result
Cc1ccc(-c2ccc3c(c2)C=C(C(=O)Nc2ccc(C[N+](C)(C)C4CCOCC4)cc2)CCC3)cc1	TB1 CLADE C	EC50		PBMC		p24	<1 µM
COC(=O)C(C)NP(=O)(OC[C@H]1O[C@@H](n2cc(F)c(=O)[nH]c2=O)C[C@@H]1O)Oc1ccccc1		EC50		CEM			4.25 µM
COc1cc2c(c(OC)c1)[C@@H](N1CCCC1=O)C[C@@H](c1cccc(N)c1)N2	NL4-3	EC50		MT-2		MTT	116 µM
COCCNC(=O)c1c(O)c2ncc(Cc3ccc(F)cc3)c3c2n(c1=O)C[C@@H](C(=O)NC(C)(C)CO)O3	IIIB	EC50		MT-2		ATP / luminescence	0.012 µM
CC(C)C1=C2[C@H]3CC[C@@H]4[C@@]5(C)CC[C@H](OC(=O)[C@H]6C[C@@H](C(=O)O)C6(C)C)C(C)(C)[C@@H]5CC[C@@]4(C)[C@]3(C)CC[C@@]2([C@@H](O)CNCc2ccc(C(F)(F)F)cc2)CC1=O	92HT599	EC50		MT-2		p24 / ELISA	<1 µM
COc1ccc2nc(-c3cccc([N+](=O)[O-])c3)ccc2c1	NL4-3	EC50	Delta-VSV-Luc	MT-2	pseudotyped	luciferase	18.57 µM
OCCC#Cc1nc(-c2ccc(F)cc2)c(-c2ccncc2)n1CCCc1ccccc1	89.6	EC50		Jurkat cells		p24	<1 µM
CC(=O)OCC1=C[C@H]2[C@@H]3C(C)(C)[C@]3(OC(C)=O)[C@H](OC(=O)/C=C/c3ccc4c(c3)OCO4)[C@@H](C)[C@]2(O)[C@@H]2C=C(C)C(=O)[C@@]2(O)C1	IIIB	EC50		C8166		p24 / ELISA	0.2101 µM
Nc1ccn([C@H]2S[C@@H](CO)C=C2F)c(=O)n1	BRU-184V	EC50	RT-M184V	PBMC		RT activity	<125 µM
CC(C)C1=C2[C@H]3CC[C@@H]4[C@@]5(C)CC[C@H](OC(=O)[C@H]6C[C@@H](C(=O)O)C6(C)C)C(C)(C)[C@@H]5CC[C@@]4(C)[C@]3(C)CC[C@@]2(CCNCC(C)(CO)NC(=O)c2ccc(Cl)cc2)CC1=O	92HT599	EC50		MT-2		p24 / ELISA	<1 µM
CCCc1c(Cc2cc(C)cc(C)c2)n(COCC2CC=CCC2)c(=O)[nH]c1=O	NNRTI-resistant (RT Y181C) N119	EC50	RT-Y181C	MT-4		cytopathic effect / MTT	>100 µM
CCn1nc(CC(=O)N/N=C/c2ccco2)nc1C	IIIB	EC50		MT-4		cytopathic effect	>102 µg/mL
CCCc1c(Cc2ccccc2)n(COC/C=C/c2ccccc2)c(=O)[nH]c1=O	NNRTI-resistant (RT K103N Y181C) A17	EC50	RT-K103N Y181C	MT-4		cytopathic effect / MTT	>100 µM
CC(=O)O[C@@]12[C@H](OC(=O)/C=C/c3ccc(Cl)cc3)[C@@H](C)[C@@]3(O)[C@@H](C=C(CO)C[C@]4(O)C(=O)C(C)=C[C@@H]34)[C@@H]1C2(C)C		EC50		C8166		p24 / ELISA	0.0246 µM
C=CCOCn1c(Cc2cccc(F)c2)c(CC)c(=O)[nH]c1=O	N119 (Y181C)	EC50		MT-4		MTT	10 µM
CNC(=O)c1c(O)c2ncc(Cc3ccc(F)cc3)c3c2n(c1=O)C[C@@H](Cn1cnc(C)c1)O3	IIIB	EC50		MT-2		ATP / luminescence	0.0083 µM
CN(C)C1=C(C#N)/C(=C2/C(C#N)=C(N(C)C)N(c3ccc([N+](=O)[O-])cc3)c3c2n(C)c2ccccc32)c2c(c3ccccc3n2C)N1c1ccc([N+](=O)[O-])cc1	Calanolide-resistant (RT T139I)	EC50	RT-T139I	CEM + CEM-SS		cytopathic effect / XTT	1.1–1.14 µM
Cc1cn([C@H]2C=C[C@@H](CO)O2)c(=O)[nH]c1=O	HXB2 (RT T215 V75A K65R) Recombinant	EC50		MT-4		cytopathic effect / MTT	0.62 µM
CCn1cc(C(=O)O)c(=O)c2cc(F)c(N3CCN(CN4C(=O)C(=Nc5ccc(S(=O)(=O)Nc6nc(C)cc(C)n6)cc5)c5cc(F)ccc54)CC3)cc21	IIIB	EC50		MT-4		cytopathic effect / MTT	19.12 µM
COC[C@@H](c1ccc(C(F)(F)F)cc1)N1CCN(C2(C)CCN(C(=O)c3c(C)ncnc3C)CC2)C[C@@H]1C	S	EC50		TZM-bl			0.021 µM
CC(C)C1=C2[C@H]3CC[C@@H]4[C@@]5(C)CC[C@H](OC(=O)[C@H]6C[C@@H](C(=O)O)C6(C)C)C(C)(C)[C@@H]5CC[C@@]4(C)[C@]3(C)CC[C@@]2(CC(=O)N(CCN(C)C)Cc2nccs2)CC1=O	92HT599	EC50		MT-2		p24 / ELISA	<1 µM
Cc1cccc(CS(=O)(=O)c2cccc[n+]2[O-])c1	IIIB	EC50		C8166		syncytia	7 µg/mL
CC(C)Nc1cccnc1N1CCN(C(=O)c2cc3cc(NS(C)(=O)=O)ccc3[nH]2)CC1	IIIB	EC50		MT-4		cytopathic effect	>0.05 µg/mL
CC(C)C1=C2[C@H]3CC[C@@H]4[C@@]5(C)CC[C@H](OC(=O)[C@H]6C[C@@H](C(=O)O)C6(C)C)C(C)(C)[C@@H]5CC[C@@]4(C)[C@]3(C)CC[C@@]2([C@@H](O)CNC(=O)C2(N)COC2)CC1=O	92HT599	EC50		MT-2		p24 / ELISA	<1 µM
CCOCn1c(Cc2ccccc2)c(C(C)C)c(=O)[nH]c1=O	NNRTI-resistant (RT K103N Y181C) A17	EC50	RT-K103N Y181C	MT-4		cytopathic effect / MTT	>100 µM
Cc1ccc(C(C)S(=O)(=O)c2c(C)ccc[n+]2[O-])c(C)c1	IIIB	EC50	RT-Y181C	CEM		syncytia	50 µg/mL
[O-][n+]1onc2ncnc(N3CC[N+]4(CC3)CC[N+]3(CCN(c5ncnc6no[n+]([O-])c56)CC3)CC4)c21	A17	EC50	RT-K103N Y181C	MT-4		cytopathic effect / XTT	33.7 µM
Cc1nc(Cc2n[nH]c(=S)n2-c2ccccc2)nn1C	IIIB	EC50		MT-4		cytopathic effect	>59.3 µg/mL
C#CCOCn1c(Cc2cccc(C(F)(F)F)c2)c(C(C)C)c(=O)[nH]c1=O	N119 (Y181C)	EC50		MT-4		MTT	2.6 µM
CCn1nc(-c2ccc(Cn3ccc4ccccc43)cc2)nc1C	IIIB	EC50		MT-4		cytopathic effect	>0.48 µg/mL
Cc1ccc(C)c(C(C)S(=O)(=O)c2c(C)ccc[n+]2[O-])c1	RF	EC50		CEM		syncytia	0.3 µg/mL
COC(=O)C(C)NP(=O)(OC[C@H]1S[C@H](n2cc(F)c(=O)[nH]c2=O)CC1O)Oc1ccccc1		EC50		CEM + CEM TK-			>100 µM
Cc1ccc(C)c(C(C)S(=O)(=O)c2ccc(C)c[n+]2[O-])c1	RF	EC50		CEM		syncytia	48 µg/mL
CC/C=C\C/C=C\C/C=C\C/C=C\C/C=C\C/C=C\CCC(=O)O[C@@H]1[C@@H](C)[C@@]2(O)[C@@H](C=C(COC(C)=O)C[C@]3(O)C(=O)C(C)=C[C@@H]23)[C@@H]2C(C)(C)[C@]12O	IIIB	EC50		C8166		p24 / ELISA	15.66 µM
C=CCOCn1c(Cc2cccc(C(F)(F)F)c2)c(C(C)C)c(=O)[nH]c1=O	EFV-resistant (K103R V179D P225H)	EC50		MT-4		MTT	>39 µM
CC(C)C1=C2[C@H]3CC[C@@H]4[C@@]5(C)CC[C@H](OC(=O)[C@H]6C[C@@H](C(=O)O)C6(C)C)C(C)(C)[C@@H]5CC[C@@]4(C)[C@]3(C)CC[C@@]2([C@@H](O)CNCC(C)(C)NC(=O)CN(C)C)CC1=O	92HT599	EC50		MT-2		p24 / ELISA	<1 µM
CC(C)CN(C[C@@H](O)[C@H](Cc1ccccc1)NC(=O)O[C@H]1CO[C@H]2OCC[C@H]21)S(=O)(=O)c1ccc2nc(NC3CCN(C4CCCC4)CC3)sc2c1	T20760	EC50	L10F I47I/V	MT-4		reporter gene	65 nM
Cc1cc(C)nc(NS(=O)(=O)c2ccc(N=C3C(=O)N(CN4CCN(c5cc6c(cc5F)c(=O)c(C(=O)O)cn6C5CC5)CC4)c4ccccc43)cc2)n1	IIIB	EC50		MT-4		cytopathic effect / MTT	31.06 µM
Cc1ccc(C)c(CS(=O)(=O)c2ccccn2)c1	IIIB	EC50		C8166		syncytia	4 µg/mL
COc1ccc2c(c1)[C@@H](N1CCCC1=O)C[C@@H](c1cccc([N+](=O)[O-])c1)N2	NL4-3-Luc	EC50		MT-2		luciferase	>136 µM
C#CCOCn1c(Cc2c(F)c(F)cc(F)c2F)c(CC)c(=O)[nH]c1=O	EFV-resistant (K103R V179D P225H)	EC50		MT-4		MTT	>5 µM
COc1cc(OC)c2ccc(-c3cccc([N+](=O)[O-])c3)nc2c1	NL4-3	EC50		MT-2		MTT	18.48 µM
COc1ccc(C)cc1CS(=O)(=O)c1cccc[n+]1[O-]	IIIB	EC50		MT-2		syncytia	12 µg/mL
O=C(O)c1cc(-n2cccc2)ccc1Cl	93IN101 R5 CLADE C	EC90		PBMC + MT-2		p24	39.91 µM
O=C(CNC(=O)COc1ccccc1)NCc1ccc(C(=O)N2CCCCC2)cc1	92BR025	EC50		PBMC		RT activity	16.3 µM
CC1=C[C@H]2[C@@]3(O)[C@H](C)[C@@H](OC(=O)/C=C/c4ccccc4)[C@]4(OC(=O)/C=C/c5ccccc5)[C@H]([C@@H]3C=C(CO)C[C@]2(O)C1=O)C4(C)C	IIIB	EC50		C8166		p24 / ELISA	0.1236 µM
Cc1cn([C@H]2C=C[C@@H](CO)O2)c(=O)[nH]c1=O		EC50		PBMC			0.05 µM
CCCc1c(Cc2ccccc2)n(COC/C(C)=C/c2ccccc2)c(=O)[nH]c1=O	NNRTI-resistant (RT K103N Y181C) A17	EC50	RT-K103N Y181C	MT-4		cytopathic effect / MTT	>100 µM
Cc1cc(C)nc(NS(=O)(=O)c2ccc(N=C3C(=O)N(CN4CCN(c5cc6c(cc5F)c(=O)c(C(=O)O)cn6C)CC4C)c4ccccc43)cc2)n1	IIIB	EC50		CEM		cytopathic effect / XTT	>116 µM
CCc1c(Cc2cc(C)cc(C)c2)n(COC/C(C)=C/c2ccccc2)c(=O)[nH]c1=O	IIIB	EC50		MT-4		cytopathic effect / MTT	0.003 µM
CCN1C[C@H](C)n2c(c(O)c3c(=O)n(Cc4ccc(F)c(Cl)c4)nc(C(=O)NC)c32)C1=O	NL4-3	EC50	Wild type	PM1		RT activity	0.0019 µM
COc1ccc(N2CCN(CN3C(=O)C(=Nc4ccc(S(=O)(=O)Nc5nc(C)cc(C)n5)cc4)c4cc(F)ccc43)CC2)cc1	IIIB	EC50		MT-4		cytopathic effect / MTT	>43.32 µM
Nc1cccc([C@@H]2C[C@H](N3CCCC3=O)c3cc(I)ccc3N2)c1	NL4-3-Luc	EC50		MT-2		luciferase	54.42 µM
CNC(=O)c1c(O)c2ncc(Cc3ccc(F)cc3)c3c2n(c1=O)C[C@H](CN1CCCC1)O3	IIIB	EC50		MT-2		ATP / luminescence	0.022 µM
CC1=C[C@H]2[C@@]3(O)[C@H](C)[C@@H](OC(=O)CCCCCBr)[C@]4(OC(=O)CCCCCBr)[C@H]([C@@H]3C=C(CO)C[C@]2(O)C1=O)C4(C)C	IIIB	EC50		C8166		p24 / ELISA	0.0057 µM
Cc1ccc(C)c(CSc2c(Cl)ccc[n+]2[O-])c1	IIIB	EC50	RT-Y188H	CEM		syncytia	9.2 µg/mL
CNC(=O)[C@H]1Cn2c(=O)c(C(=O)NCCO)c(O)c3ncc(Cc4ccc(F)cc4)c(c32)O1	IIIB	EC50		MT-2		ATP / luminescence	0.039 µM

Repeating the final 6 entries:

{"compound": "COc1ccc(N2CCN(CN3C(=O)C(=Nc4ccc(S(=O)(=O)Nc5nc(C)cc(C)n5)cc4)c4cc(F)ccc43)CC2)cc1", "strain": "IIIB", "measure": "EC50", "cell line": "MT-4", "method": "cytopathic effect / MTT", "result": ">43.32 µM"}
{"compound": "Nc1cccc([C@@H]2C[C@H](N3CCCC3=O)c3cc(I)ccc3N2)c1", "strain": "NL4-3-Luc", "measure": "EC50", "cell line": "MT-2", "method": "luciferase", "result": "54.42 µM"}
{"compound": "CNC(=O)c1c(O)c2ncc(Cc3ccc(F)cc3)c3c2n(c1=O)C[C@H](CN1CCCC1)O3", "strain": "IIIB", "measure": "EC50", "cell line": "MT-2", "method": "ATP / luminescence", "result": "0.022 µM"}
{"compound": "CC1=C[C@H]2[C@@]3(O)[C@H](C)[C@@H](OC(=O)CCCCCBr)[C@]4(OC(=O)CCCCCBr)[C@H]([C@@H]3C=C(CO)C[C@]2(O)C1=O)C4(C)C", "strain": "IIIB", "measure": "EC50", "cell line": "C8166", "method": "p24 / ELISA", "result": "0.0057 µM"}
{"compound": "Cc1ccc(C)c(CSc2c(Cl)ccc[n+]2[O-])c1", "strain": "IIIB", "measure": "EC50", "mutations": "RT-Y188H", "cell line": "CEM", "method": "syncytia", "result": "9.2 µg/mL"}
{"compound": "CNC(=O)[C@H]1Cn2c(=O)c(C(=O)NCCO)c(O)c3ncc(Cc4ccc(F)cc4)c(c32)O1", "strain": "IIIB", "measure": "EC50", "cell line": "MT-2", "method": "ATP / luminescence", "result": "0.039 µM"}